From US7910622B2, “Modulation of bacterial quorum sensing with synthetic ligands” (Wisconsin Alumni Research Foundation, priority 2007, dated 2011)
pIC50: −log10 of the molar value. Where “and” joins values, the source holds several entries; their conditions need not be identical. Equal entries are not always repeated. Structures were worked out from names or drawings and are uncertain.

Chains of the proteins cited; added tags and fusions are not shown.
UniProt P33905, whole entry: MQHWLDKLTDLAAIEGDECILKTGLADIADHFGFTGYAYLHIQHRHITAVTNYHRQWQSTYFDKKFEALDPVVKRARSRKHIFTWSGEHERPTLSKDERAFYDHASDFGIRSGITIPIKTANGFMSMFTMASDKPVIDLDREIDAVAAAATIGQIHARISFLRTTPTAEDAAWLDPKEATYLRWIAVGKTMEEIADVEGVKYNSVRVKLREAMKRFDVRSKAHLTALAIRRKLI
UniProt P25084, whole entry: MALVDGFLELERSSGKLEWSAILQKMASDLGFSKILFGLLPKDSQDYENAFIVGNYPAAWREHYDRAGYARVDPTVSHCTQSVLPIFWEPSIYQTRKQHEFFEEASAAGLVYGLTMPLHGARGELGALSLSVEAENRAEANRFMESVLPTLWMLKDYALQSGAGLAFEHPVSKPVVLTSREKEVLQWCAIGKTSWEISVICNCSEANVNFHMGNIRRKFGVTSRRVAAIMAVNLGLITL

Legend:
[1] = biological target: T1, TraR (Agrobacterium tumefaciens, UniProt P33905)
[2] = biological target: T1, TraR; details: 10 μM ligand; A. tumefaciens WCF47 (pCF372); normalized to OOHL
[3] = biological target: T2, LasR (Pseudomonas aeruginosa, UniProt P25084); details: 5 μM synthetic ligand against 7.5 nM OdDHL; E. coli DH5α (pJN105L pSC11); normalized to OdDHL
[4] = biological target: T2, LasR; details: 5 μM ligand; E. coli DH5α (pJN105L pSC11); normalized to OdDHL

Row | Structure (SMILES) | A. tumefaciens-TraR Inhibition [%] ([1]; 10 μM synthetic ligand against 100 nM OOHL, A. tumefaciens WCF47 (pCF372), normalized to OOHL) | A. tumefaciens-TraR Activation [%] [2] [%] | E. coli-LasR Inhibition [%] [3] | pIC50 ([1]; read-out: TraR IC50, determined against 100 nM OOHL) | E. coli-LasR Activation [%] [4] [%]
1 | O=C(CCc1ccc(Br)cc1)N[C@H]1CCOC1=O | 93 | 2 | – | – | –
2 | O=C(Cc1ccc(I)cc1)N[C@H]1CCOC1=O [B13] | – | – | 36% and 21% | 5.90 | 0
